Source: patent US11613546B2, “Substituted pyridotriazine compounds and uses thereof” (Gilead Sciences, Inc., priority 2021, dated 2023)

These compounds were tested on pLai RLuc reporter virus (assay: HIV MT-4 serum shift antiviral reporter assay). Conditions: EC50 (HS/CCM)/EC50 (CCM) fold shift, measure of protein binding.
Assay type: cell-based
Description: To quantify the amount of protein binding to human serum, compounds were serially diluted (1:3) in DMSO and acoustically transferred onto 384-well assay plates via a Labcyte ECHO robot. Each plate contained up to 8 test compounds, including negative and positive controls, (DMSO, 5 μM AZT respectively). Assay plates were prepared in duplicate, and tested in either CCM (cell culture media) or HS/CCM (human serum/cell culture media). MT-4 cells were first pre-infected with pLai RLuc reporter virus for 2 h at 37° C., then further diluted in either CCM (RPMI media, 10% FBS, 1% P/S) or HS/CCM (RPMI media, 10% FBS, 50% HS, 1% P/S), and subsequently added to each plate using a Biotek Micro Flow dispenser. After a 72-h incubation in a humidified and temperature controlled incubator (37° C.), Renilla Glo (Promega) was added to all assay plates and chemiluminescence read using an Envision plate-reader. EC50 values were defined as the compound concentration that causes a 50% decrease in luminescence signal, and were calculated using a sigmoidal dose-response model to generate curve fits. To determine the amount of protein binding, EC50 fold shifts (or EC50 shifts) were calculated by dividing EC50 (HS/CCM)/EC50 (CCM).

Compound	RLUC Shift
CO[C@@H]1C[C@@H](C)N2CN(C(=O)c3c(O)c(=O)c(C(=O)NCc4c(F)cc(F)cc4F)cn32)[C@H]1C [Example C33, (1S,2R,4R,5S)-8-hydroxy-4-methoxy-2,5-dimethyl-7,9-dioxo-N-(2,4,6-trifluorobenzyl)-2,3,4,5,7,9-hexahydro-1,6-methanopyrido[1,2-b][1,2,5]triazonine-10-carboxamide]	2.3
C[C@@H]1C[C@H](F)[C@H](C)N2CN1n1cc(C(=O)NCc3c(F)cc(F)cc3F)c(=O)c(O)c1C2=O [Example C34, (1S,2R,4S,5S)-4-fluoro-8-hydroxy-2,5-dimethyl-7,9-dioxo-N-(2,4,6-trifluorobenzyl)-2,3,4,5,7,9-hexahydro-1,6-methanopyrido[1,2-b][1,2,5]triazonine-10-carboxamide]	1587
C[C@@H]1CC(F)(F)[C@H](C)N2CN1n1cc(C(=O)NCc3c(F)cc(F)cc3F)c(=O)c(O)c1C2=O [Example C35, (1S,2R,5S)-4,4-difluoro-8-hydroxy-2,5-dimethyl-7,9-dioxo-N-(2,4,6-trifluorobenzyl)-2,3,4,5,7,9-hexahydro-1,6-methanopyrido[1,2-b][1,2,5]triazonine-10-carboxamide]	149
C[C@@H]1CC[C@H](C)N2CN1n1cc(C(=O)NCc3ccc(F)cc3F)c(=O)c(O)c1C2=O [Example C37, (1S,2R,5S)—N-(2,4-difluorobenzyl)-8-hydroxy-2,5-dimethyl-7,9-dioxo-2,3,4,5,7,9-hexahydro-1,6-methanopyrido[1,2-b][1,2,5]triazonine-10-carboxamide]	375
CO[C@H]1C[C@@H](C)N2CN(C[C@H]1OC)C(=O)c1c(O)c(=O)c(C(=O)NCc3ccc(F)cc3F)cn12 [Example C39, (1S,2R,4S,5R)—N-(2,4-difluorobenzyl)-9-hydroxy-4,5-dimethoxy-2-methyl-8,10-dioxo-3,4,5,6,8,10-hexahydro-2H-1,7-methanopyrido[1,2-b][1,2,5]triazecine-11-carboxamide]	5
C[C@H]1CCCCN2CN1n1cc(C(=O)NCc3ccc(F)cc3F)c(=O)c(O)c1C2=O [Example C40, (1S,2S)—N-(2,4-difluorobenzyl)-9-hydroxy-2-methyl-8,10-dioxo-3,4,5,6,8,10-hexahydro-2H-1,7-methanopyrido[1,2-b][1,2,5]triazecine-11-carboxamide]	103
C[C@H]1C/C=C\CN2CN1n1cc(C(=O)NCc3ccc(F)cc3F)c(=O)c(O)c1C2=O [Example C41, (1S,2S,Z)—N-(2,4-difluorobenzyl)-9-hydroxy-2-methyl-8,10-dioxo-3,6,8,10-tetrahydro-2H-1,7-methanopyrido[1,2-b][1,2,5]triazecine-11-carboxamide]	97
C[C@H]1CCCCN2CN1n1cc(C(=O)NCc3ccc(F)cc3F)c(=O)c(O)c1C2=O [Example C42, (1R,2S)—N-(2,4-difluorobenzyl)-9-hydroxy-2-methyl-8,10-dioxo-3,4,5,6,8,10-hexahydro-2H-1,7-methanopyrido[1,2-b][1,2,5]triazecine-11-carboxamide]	761
C[C@H]1C/C=C\CN2CN1n1cc(C(=O)NCc3ccc(F)cc3F)c(=O)c(O)c1C2=O [Example C43, (1R,2S,Z)—N-(2,4-difluorobenzyl)-9-hydroxy-2-methyl-8,10-dioxo-3,6,8,10-tetrahydro-2H-1,7-methanopyrido[1,2-b][1,2,5]triazecine-11-carboxamide]	324
CO[C@@H]1C=C[C@H](C)N2CN1n1cc(C(=O)NCc3c(F)cc(F)cc3F)c(=O)c(O)c1C2=O [Example C46, (1R,2R,5S)-8-hydroxy-2-methoxy-5-methyl-7,9-dioxo-N-(2,4,6-trifluorobenzyl)-2,5,7,9-tetrahydro-1,6-methanopyrido[1,2-b][1,2,5]triazonine-10-carboxamide]	1071
C[C@@H]1C=C[C@H](CF)N2CN1n1cc(C(=O)NCc3ccc(F)cc3F)c(=O)c(O)c1C2=O [Example C49a, (1S,10R,13R)—N-[(2,4-difluorophenyl)methyl]-10-(fluoromethyl)-6-hydroxy-13-methyl-5,8-dioxo-1,2,9-triazatricyclo[7.4.1.02,7]tetradeca-3,6,11-triene-4-carboxamide]	220
C[C@@H]1CC[C@H](CF)N2CN1n1cc(C(=O)NCc3ccc(F)cc3F)c(=O)c(O)c1C2=O [Example C49b, (1S,10R,13R)—N-[(2,4-difluorophenyl)methyl]-10-(fluoromethyl)-6-hydroxy-13-methyl-5,8-dioxo-1,2,9-triazatricyclo[7.4.1.02,7]tetradeca-3,6-diene-4-carboxamide]	450
C[C@@H]1CC[C@H](CF)N2CN1n1cc(C(=O)NCc3c(F)cc(F)cc3F)c(=O)c(O)c1C2=O [Example C51, (1S,2R,5R)-5-(fluoromethyl)-8-hydroxy-2-methyl-7,9-dioxo-N-(2,4,6-trifluorobenzyl)-2,3,4,5,7,9-hexahydro-1,6-methanopyrido[1,2-b][1,2,5]triazonine-10-carboxamide]	180
C[C@@H]1C=C[C@@H](C)N2CN1C(=O)c1c(O)c(=O)c(C(=O)NCc3c(F)cc(F)cc3F)cn12 [Example C64, (1S,2R,5R)-8-hydroxy-2,5-dimethyl-7,9-dioxo-N-(2,4,6-trifluorobenzyl)-2,5,7,9-tetrahydro-1,6-methanopyrido[1,2-b][1,2,5]triazonine-10-carboxamide]	549
CC[C@@H]1C=C[C@H](C)N2CN1n1cc(C(=O)NCc3c(F)cc(F)cc3F)c(=O)c(O)c1C2=O [Example C72, (1S,2R,5S)-2-ethyl-8-hydroxy-5-methyl-7,9-dioxo-N-(2,4,6-trifluorobenzyl)-2,5,7,9-tetrahydro-1,6-methanopyrido[1,2-b][1,2,5]triazonine-10-carboxamide]	772
C[C@H]1C=C[C@@H](CF)N2CN1C(=O)c1c(O)c(=O)c(C(=O)NCc3c(F)cc(F)cc3F)cn12 [Example C76, (1S,2S,5S)-2-(fluoromethyl)-8-hydroxy-5-methyl-7,9-dioxo-N-(2,4,6-trifluorobenzyl)-2,5,7,9-tetrahydro-1,6-methanopyrido[1,2-b][1,2,5]triazonine-10-carboxamide]	632
C[C@H]1CC[C@@H](C(F)F)N2CN1C(=O)c1c(O)c(=O)c(C(=O)NCc3c(F)cc(F)cc3F)cn12 [Example C78, (1S,2S,5S)-2-(difluoromethyl)-8-hydroxy-5-methyl-7,9-dioxo-N-(2,4,6-trifluorobenzyl)-2,3,4,5,7,9-hexahydro-1,6-methanopyrido[1,2-b][1,2,5]triazonine-10-carboxamide]	2470
C[C@H]1C=C[C@H](CF)N2CN1C(=O)c1c(O)c(=O)c(C(=O)NCc3c(F)cc(F)cc3F)cn12 [Example C80, (1R,2R,5S)-2-(fluoromethyl)-8-hydroxy-5-methyl-7,9-dioxo-N-(2,4,6-trifluorobenzyl)-2,5,7,9-tetrahydro-1,6-methanopyrido[1,2-b][1,2,5]triazonine-10-carboxamide]	652
C[C@H]1C=C[C@]2(CCOC2)N2CN1C(=O)c1c(O)c(=O)c(C(=O)NCc3c(F)cc(F)cc3F)cn12 [Example C84, (1′S,3S,5′S)-8′-hydroxy-5′-methyl-7′,9′-dioxo-N-(2,4,6-trifluorobenzyl)-4,5,7′,9′-tetrahydro-2H,5′H-spiro[furan-3,2′-[1,6]methanopyrido[1,2-b][1,2,5]triazonine]-10′-carboxamide]	95
C[C@@H]1[C@H]2C[C@H]2[C@H](C)N2CN1n1cc(C(=O)NCc3c(F)cc(F)cc3F)c(=O)c(O)c1C2=O [Example C89, (1aS,2R,3R,11S,11aR)-8-hydroxy-2,11-dimethyl-7,9-dioxo-N-(2,4,6-trifluorobenzyl)-1a,2,7,9,11,11a-hexahydro-1H-3,10-methanocyclopropa[g]pyrido[1,2-b][1,2,5]triazonine-6-carboxamide]	34
C[C@H]1C=CC(C)(C)N2CN1n1cc(C(=O)NCc3ccc(F)cc3F)c(=O)c(O)c1C2=O [Example C91, (1R,2S)—N-(2,4-difluorobenzyl)-8-hydroxy-2,5,5-trimethyl-7,9-dioxo-2,5,7,9-tetrahydro-1,6-methanopyrido[1,2-b][1,2,5]triazonine-10-carboxamide]	291
C[C@H]1C=CC(C)(C)N2CN1n1cc(C(=O)NCc3ccc(F)cc3F)c(=O)c(O)c1C2=O [Example C92, (1S,2S)—N-(2,4-difluorobenzyl)-8-hydroxy-2,5,5-trimethyl-7,9-dioxo-2,5,7,9-tetrahydro-1,6-methanopyrido[1,2-b][1,2,5]triazonine-10-carboxamide]	368
C[C@@H]1CCC(C)(C)N2CN1n1cc(C(=O)NCc3ccc(F)cc3F)c(=O)c(O)c1C2=O [Example C93, (1S,2R)—N-(2,4-difluorobenzyl)-8-hydroxy-2,5,5-trimethyl-7,9-dioxo-2,3,4,5,7,9-hexahydro-1,6-methanopyrido[1,2-b][1,2,5]triazonine-10-carboxamide]	84
C[C@H]1CCC(C)(C)N2CN1n1cc(C(=O)NCc3ccc(F)cc3F)c(=O)c(O)c1C2=O [Example C94, (1R,2S)—N-(2,4-difluorobenzyl)-8-hydroxy-2,5,5-trimethyl-7,9-dioxo-2,3,4,5,7,9-hexahydro-1,6-methanopyrido[1,2-b][1,2,5]triazonine-10-carboxamide]	58
